Measured values from several laboratories, pooled; numbers as filed in NIAID ChemDB.

All rows: toxicity to cultured cells; read-out: CC50

An empty or dashed field is not shown.

SMILES,cells,method,value
Nc1ccn([C@H]2CO[C@@H](CO)S2)c(=O)n1,CBMC,-,>500 µM
O=C(NC1N=C(c2ccccc2)c2ccccc2NC1=O)c1cc(F)c(F)cc1F,HEP-2,-,8 µM
Nc1ncc(N2CCC(c3[nH]ncc3Cc3ccccc3)CC2)cn1,MAGI-CCR5,MTS,>300 µM
O=C(NC1N=C(c2ccccc2)c2ccccc2NC1=O)c1ccncc1,VERO,-,2.5 µM
Nc1cc(CN2CCC(c3[nH]ncc3Cc3ccccc3)CC2)ncn1,MAGI-CCR5,MTS,>100 µM
COc1ccc(-c2cc(C(=O)O)c3cc4ccccc4cc3n2)cc1Br,VERO,-,26.33 µg/mL
Nc1ncnc2c1ncn2C[C@@H](CO)OCP(=O)(O)O,U138-MG,-,55 µg/mL
COc1cc([N+](=O)[O-])ccc1C(=O)N[C@H]1N=C(c2ccccc2)c2ccccc2NC1=O,VERO,-,<0.3 µM
O=c1c2cccn2ccn1CCNC(=S)Nc1ccc(Br)cn1,NSO,-,420 µM
C[C@@H]1O[C@@H](OC[C@H]2O[C@@H](Oc3c(-c4ccc(OS(=O)(=O)O)c(OS(=O)(=O)O)c4)oc4cc(OS(=O)(=O)O)cc(OS(=O)(=O)O)c4c3=O)[C@H](OS(=O)(=O)O)[C@@H](OS(=O)(=O)O)[C@@H]2OS(=O)(=O)O)[C@H](OS(=O)(=O)O)[C@H](OS(=O)(=O)O)[C@H]1OS(=O)(=O)O,TZM-b1,-,2800 µM
O=C(N[C@H]1N=C(c2ccccc2)c2ccccc2NC1=O)c1cc(Br)c(Br)o1,HEP-2,-,3.9 µM
O=C([O-])c1cc(C(=O)[O-])cc(-c2c3nc(c(-c4cc(C(=O)[O-])cc(C(=O)[O-])c4)c4ccc([n-]4)c(-c4cc(C(=O)[O-])cc(C(=O)[O-])c4)c4nc(c(-c5cc(C(=O)[O-])cc(C(=O)[O-])c5)c5ccc2[n-]5)C=C4)C=C3)c1,MAGI cell,MTT,>100 µM
CC(C)n1nc(-c2ccc3oc(N)nc3c2)c2c(N)ncnc21,U1,MTT,>0.01 µM
O=Nc1c(-c2ccccc2)[nH]oc1=O,VERO,-,1.92 µg/mL
Cc1cn([C@H]2C[C@H](F)[C@@H](CO)O2)c(=O)[nH]c1=O,CFU-GM,-,10 µM
C=CC1CN2CCC1CC2C[C@H](O)c1ccnc2ccc(OC)cc12,THP-1 monocytes,-,70 µg/mL
O=C(N/N=C/c1cccs1)c1ccncc1,VERO,-,>62.5 µg/mL
Nc1ccn(C[C@@H](CO)OCP(=O)(O)O)c(=O)n1,U373-MG,-,112 µg/mL
O=c1[nH]c(=O)n([C@H]2C[C@H](O)[C@@H](CO)O2)cc1C12B3B4B5B6B(B3B1B42)B1B5C61,SK-MES-1,-,>100 µM
Cn1cc(NC(=O)c2cc(NC(=O)CCCCCCCC(=O)Nc3cc(C(=O)Nc4cc(C(=O)NCCC(N)=[NH2+])n(C)c4)n(C)c3)cn2C)cc1C(=O)NCCC(N)=[NH2+],VERO,-,>62.5 µg/mL
Nc1nc(N)c2ncn([C@H]3CC[C@@H](CO)O3)c2n1,GM-CFC,-,>500 µM
Nc1nc(=O)[nH]s1,VERO,-,31.48 µg/mL
Cc1cn([C@@H]2C[C@@H](O)[C@H](CO)O2)c(=O)[nH]c1=O,MA-104,-,>100 µM
C/C(=N\N1CC(=O)NC1=O)c1ccc([N+](=O)[O-])o1,VERO,-,23.4 µg/mL
Nc1ncnc2c1ncn2[C@@H]1C[C@@H](O)[C@H](CO)O1,2.2.15,-,>1000 µM
COc1ccc2cc1-c1cc(ccc1O)C[C@H]1c3cc4c(cc3CCN1C)Oc1c(OC)cc3c(c1O4)[C@H](C2)N(C)CC3,VERO,-,2.46 µg/mL
CC[C@H](C)[C@H](O)C(=O)NC1CC2CCC1(C)C2(C)C,HEK293T,MTT,106.6 µM
C[n+]1c(-c2ccc(/C=N/NC(=O)N/N=C/c3ccc(-c4cn5ccccc5[n+]4C)cc3)cc2)cn2ccccc21.Cc1ccc(S(=O)(=O)[O-])cc1.Cc1ccc(S(=O)(=O)[O-])cc1,VERO,-,>50 µg/mL
Nc1ccn([C@H]2C[C@H](F)[C@@H](CO)O2)c(=O)n1,CFU-GM,-,100 µM
CC1(C)C2CCC1(C)C(NC(=O)[C@@H](O)Cc1ccccc1)C2,HEK293T,MTT,52.8 µM
c1cc(CN2CCCNCCNCCCNCC2)ccc1CN1CCCNCCNCCCNCC1,MAGI cell,MTT,>0.2 µM
CCN(CC)C(=S)[S][Bi]([S]C(=S)N(CC)CC)[S]C(=S)N(CC)CC,VERO,-,0.42 µg/mL
CCc1nccc(CN2CCC(c3[nH]ncc3Cc3ccccc3)CC2)n1,MAGI-CCR5,MTS,>100 µM
CCCCN(CCCC)/N=C/C1=C2NC(=O)/C(C)=C\C=C/C(OC)C(OC(N)=O)/C(C)=C/C(C)C(O)C(OC)CC(C)CC(=C(OC)C1=O)C2=O,VERO,-,5.65 µg/mL
Nc1ccn([C@@H]2C[C@@H](O)[C@H](CO)O2)c(=O)n1,MA-104,-,>100 µM
COc1cc(C)c2sc3ccccc3c(=O)c2c1NCCCN(C)C,VERO,-,3.43 µg/mL
O[C@H]1[C@H](O)[C@@H](O)CN2CC[C@H](O)[C@H]12,JM,MTT,1000 µg/mL
Nc1nc(=O)n([C@@H]2CO[C@H](CO)S2)cc1F,CBMC,-,>500 µM
OCC(O)COCCCCCCCCCCCC1C=CCC1,VERO,-,10.85 µg/mL
O=c1[nH]cnc2c1ncn2[C@H]1CC[C@@H](CO)O1,BFU-E,-,500 µM
O=C(Nc1ccccc1-c1nn(C(=S)Nc2ccccc2)c(=S)n(C(=S)Nc2ccccc2)c1=O)C(F)(F)F,VERO,-,20 µg/mL
O=S(=O)(NC1CCN(Cc2ccncc2)CC1)c1ccc(-n2cccn2)cc1,THP-1,-,32 µM
CC(C)C1=CC2=CC(=O)[C@H]3C(C)(C)CCC[C@]3(C)C2=C(O)C1=O,VERO,-,0.7 µg/mL
O=c1c(O)c(-c2ccc(O)c(O)c2)oc2cc(O)cc(O)c12,MIT-23,-,>10 µM
CN(C)CCNc1ccc2nnn3c4ccc(O)cc4c(=O)c1c23,VERO,-,1.91 µg/mL
CC(C)c1nccc(CN2CCC(c3[nH]ncc3Cc3ccccc3)CC2)n1,MAGI-CCR5,MTS,>100 µM
CSCC[C@H](O)C(=O)NC1CC2CCC1(C)C2(C)C,HEK293T,MTT,171.5 µM
CC(C)(C)C(=O)N/N=C/c1ccc([N+](=O)[O-])s1,VERO,-,11.2 µg/mL

Repeating the final 7 entries:

SMILES | cells | method | value
O=S(=O)(NC1CCN(Cc2ccncc2)CC1)c1ccc(-n2cccn2)cc1 | THP-1 | - | 32 µM
CC(C)C1=CC2=CC(=O)[C@H]3C(C)(C)CCC[C@]3(C)C2=C(O)C1=O | VERO | - | 0.7 µg/mL
O=c1c(O)c(-c2ccc(O)c(O)c2)oc2cc(O)cc(O)c12 | MIT-23 | - | >10 µM
CN(C)CCNc1ccc2nnn3c4ccc(O)cc4c(=O)c1c23 | VERO | - | 1.91 µg/mL
CC(C)c1nccc(CN2CCC(c3[nH]ncc3Cc3ccccc3)CC2)n1 | MAGI-CCR5 | MTS | >100 µM
CSCC[C@H](O)C(=O)NC1CC2CCC1(C)C2(C)C | HEK293T | MTT | 171.5 µM
CC(C)(C)C(=O)N/N=C/c1ccc([N+](=O)[O-])s1 | VERO | - | 11.2 µg/mL

Rows are shuffled and stem from different studies. CCn is the concentration with n% toxicity to the cells.